Experimental data taken from published antibiotic growth screens (doi:10.1038/s41589-023-01349-8).
Some of the results follow.

What follows are compounds tested on A. baumannii ATCC 17978 (assay: relative growth (fraction of control); higher = less inhibition). Settings: 50 µM.
For `CNC(Cc1c[nH]c2ccccc12)C(=O)O` (stereo unspecified), the relative growth was 0.92.
